Anti-infective test results gathered from many reports (values: NIAID ChemDB through PubChem).

Common to all: toxicity to cultured cells; cells: HepG2; measure: CC50

CCn is the concentration with n% toxicity to the cells.

{"SMILES": "O=C(N/N=C/C12CC3CC(CC(C3)C1)C2)c1ccncc1", "method": "luminescence", "value": "100 µg/mL"}
{"SMILES": "CCCCCC1CC(O)CC(=O)O1", "method": "MTT", "value": "751 µg/mL"}
{"SMILES": "C=C(C)C1CCC2[C@]3(CC[C@]4(C)/C(=C(\\C)CC/C=C(/C)C(=O)O)CC[C@@]24C)C[C@]13CCC(=O)O", "method": "MTT", "value": "20.44 µM"}
{"SMILES": "CN(C)c1ccc(/C=c2\\s/c(=C/C(=O)c3ccccc3)[nH]c2=O)cc1", "method": "MTT", "value": "92.91 µg/mL"}
{"SMILES": "O=c1[nH]cnc2c1ncn2[C@H]1CC[C@@H](CO)O1", "value": ">500 µM"}
{"SMILES": "CC(C)(C)C1CCc2onc(C(=O)N3CCCCC3)c2C1", "method": "MTT", "value": ">80 µg/mL"}
{"SMILES": "Cc1cc(/C=C2\\SC(=O)NC2=O)c(C)n1C1CCCCC1", "method": "MTT", "value": ">160 µg/mL"}
{"SMILES": "CO[C@H]1/C=C/O[C@@]2(C)Oc3c(C)c(O)c4c(O)c(c(/C=N/N5CCN(C)CC5)c(O)c4c3C2=O)NC(=O)/C(C)=C\\C=C\\[C@H](C)[C@H](O)[C@@H](C)[C@@H](O)[C@@H](C)[C@H](OC(C)=O)[C@@H]1C", "method": "resazurin", "value": ">100 µg/mL"}
{"SMILES": "COc1cc(CCOC(=O)CCC(=O)CO)cc(O)c1OC", "method": "MTT", "value": "2.15 µM"}
{"SMILES": "Cc1cn([C@H]2CC[C@@H](CO)O2)c(=O)[nH]c1=O", "value": ">200 µM"}
{"SMILES": "Cc1cn([C@H]2C[C@H](N=[N+]=[N-])[C@@H](CO)O2)c(=O)[nH]c1=O", "value": "3 µM"}
{"SMILES": "OCCc1ccc(O[C@@H]2O[C@H](CO)[C@@H](O)[C@H](O)[C@H]2O)c(O)c1", "method": "MTT", "value": "11.09 µM"}
{"SMILES": "CN(C(=O)Oc1ccc(Cl)cc1C(=O)Nc1ccc(Br)cc1)c1ccccc1", "method": "MTT", "value": "945.1 µM"}
{"SMILES": "CC(NCc1ccc(OCc2ccccc2)cc1)C(O)c1ccccc1", "method": "cell count / luminescence", "value": ">30.8 µM"}
{"SMILES": "Cc1cn([C@@H]2C[C@@H](N=[N+]=[N-])[C@H](CO)O2)c(=O)[nH]c1=O", "value": ">200 µM"}
{"SMILES": "Nc1nc2c(ncn2[C@H]2CO[C@@H](CO)O2)c(=O)[nH]1", "value": ">50 µM"}
{"SMILES": "O=c1[nH]cnc2c1ncn2[C@H]1CC[C@@H](CO)O1", "method": "neutral red", "value": "360 µM"}
{"SMILES": "OCCNc1nc(NCCCCNc2ccnc3cc(Cl)ccc23)nc(N2CCCCC2)n1", "value": "40.9 µM"}
{"SMILES": "C/C(=N\\OCc1ccc(F)cc1)c1c(C)cc(=O)n(O)c1O", "method": "MTS", "setting": "3 d", "value": "65.5 µM"}
{"SMILES": "C[C@@H]1CCC2[C@@H](C)[C@@H](OCCN3CCNCC3)O[C@@H]3OC4(C)CCC1[C@@]23OO4", "method": "ATP / luminescence", "value": ">28.9 µM"}
{"SMILES": "Cc1cn([C@H]2C[C@H](F)[C@@H](CO)O2)c(=O)[nH]c1=O", "value": ">100 µM"}
{"SMILES": "O=C(N[C@H](CO)Cc1ccccc1)/C(NC(=O)c1ccc(F)cc1)=C(/Br)c1ccccc1", "method": "MTT", "value": ">100 µM"}
{"SMILES": "CC(=O)c1cc([N+](=O)[O-])c(N2CCC(C)CC2)s1", "method": "resazurin", "value": "61 µg/mL"}
{"SMILES": "Cc1cn([C@H]2C=C[C@@H](CO)O2)c(=O)[nH]c1=O", "method": "ATP", "value": "1042 µM"}
{"SMILES": "C=C1C(C(C)C2CC=C(C)C(=O)O2)=CC[C@]2(C)C1C[C@]1(O)C=C3C=CC(=O)OC(C)(C)C3CCC21", "method": "MTT", "value": "1.22 µM"}
{"SMILES": "COC(=O)N[C@H](C(=O)N1CCC[C@H]1c1ncc(-c2ccc(-c3ccc(-c4cnc([C@@H]5CCCN5C(=O)[C@@H](NC(=O)OC)C(C)C)[nH]4)cc3)cc2)[nH]1)C(C)C", "method": "LDH", "value": "17.4 µM"}
{"SMILES": "COc1ccc(/C=C2/S/C(=N/N=C/c3ccccc3O)NC2=O)cc1", "method": "MTT", "value": ">40 µg/mL"}
{"SMILES": "CC(C)=CCC/C(C)=C/CC/C(C)=C/CC[C@@]1(C)CCc2cc(O)cc(C)c2O1", "method": "ATP", "value": ">26 µM"}
{"SMILES": "Nc1ncnc2c1ncn2[C@@H]1O[C@H](OCP(=O)(O)O)C=C1F", "method": "ATP", "value": ">2000 µM"}
{"SMILES": "CC(O)CNCCCCOc1ccc(Cl)cc1Cc1ccccc1", "method": "cell count / luminescence", "value": ">12.8 µM"}
{"SMILES": "COc1ccc(-c2csc(/C(C#N)=C/c3ccc(O)c(OC)c3)n2)cc1", "method": "MTT", "value": "58.8 µg/mL"}
{"SMILES": "Cc1cc2ccc3c(c2c(-c2ccc4c(c2)OCO4)c1C)OCO3", "value": "17 µM"}
{"SMILES": "CN(C)C(=S)Oc1ccccc1C(=O)Nc1ccccc1", "method": "MTT", "value": ">500 µM"}
{"SMILES": "CC1=CCC(C(C)C2=CC[C@]3(C)C(=C2C)C[C@]2(O)C=C4C=CC(=O)OC(C)(C)C4[C@H](O)CC23)OC1=O", "method": "MTT", "value": "20.03 µM"}
{"SMILES": "O=C(O)c1c(CO)cc2ccc3c(c2c1-c1ccc2c(c1)OCO2)OCO3", "value": ">30 µM"}
{"SMILES": "CC(=O)N1C(=O)/C(=C\\C(=O)c2ccc([N+](=O)[O-])cc2)c2ccccc21", "method": "MTT", "value": ">80 µg/mL"}
{"SMILES": "O=C(CO)CCC(=O)OCCc1ccc2c(c1)OCO2", "method": "MTT", "value": "5.56 µM"}
{"SMILES": "Cc1cc(=O)c2c(O)c3c(O)cc(=O)c4c3c3c(cc(O)c1c23)C(C)(C)C=4O", "method": "MTT", "value": ">80 µg/mL"}
{"SMILES": "O=C(O)c1cc2ccc3c(c2c(-c2ccc4c(c2)OCO4)c1CO)OCO3", "value": "26 µM"}
{"SMILES": "CC/C=C\\C[C@@H]1[C@@H](CC(=O)OC)CC[C@@H]1O", "method": "ATP", "value": ">26 µM"}
{"SMILES": "O=c1nc(N2CCN(CC3CCCCC3)CC2)sc2c([N+](=O)[O-])cc(C(F)(F)F)cc12", "method": "MTT", "value": "18.98 µg/mL"}
{"SMILES": "Cc1csc(C(C)(O)c2nnc(Nc3cccc(C(F)(F)F)n3)s2)n1", "method": "resazurin / fluorescence", "value": ">100 µM"}
{"SMILES": "Nc1nc(NC2CC2)c2ncn([C@H]3C=C[C@@H](CO)C3)c2n1", "value": "180 µM"}
{"SMILES": "O=C(NCC(c1cccs1)N1CCCCC1)c1cccs1", "method": "MTT", "value": ">80 µg/mL"}
{"SMILES": "NNC(=O)c1ccncc1", "method": "luminescence", "value": ">100 µg/mL"}
{"SMILES": "Cc1cn([C@H]2C[C@H](N)[C@@H](CO)O2)c(=O)[nH]c1=O", "value": "120 µM"}
{"SMILES": "OCCc1ccc(O)c(O)c1", "method": "MTT", "value": "10.1 µM"}
{"SMILES": "CC(=O)c1cc([N+](=O)[O-])c(N2CC(C)CC(C)C2)s1", "method": "resazurin", "value": "41 µg/mL"}
{"SMILES": "c1ccc(-c2ccccc2OCCCCN2CCCCC2)cc1", "method": "cell count / luminescence", "value": ">24.5 µM"}
{"SMILES": "Nc1ccn([C@H]2CC[C@@H](CO)O2)c(=O)n1", "value": "25 µM"}
{"SMILES": "C=C1C(C(C)C2CC=C(C)C(=O)O2)=CC[C@]2(C)C1C[C@]1(O)C=C3C=CC(=O)OC(C)(C)C3[C@H](O)CC21", "method": "MTT", "value": "1.75 µM"}
{"SMILES": "Cc1cn([C@H]2C=C[C@@H](CO)O2)c(=O)[nH]c1=O", "method": "neutral red", "value": "290 µM"}
{"SMILES": "COc1ccc(-n2c(O)c(/C=C3\\C=CC=N3)c(=O)[nH]c2=O)cc1", "method": "MTT", "value": ">160 µg/mL"}
{"SMILES": "CO[C@H]1C=CC2=CCN3CCc4cc5c(cc4[C@]23C1)OCO5", "method": "MTT", "value": "17.6 µg/mL"}
{"SMILES": "CC(=O)OC(C1CC(C)C(=O)O1)C(C)C1C2C3(O)OC4(CCC12C)C(=CCC1C(C)(C)OC2CC(=O)OC21C4O)C3=O", "method": "MTT", "value": "7.18 µg/mL"}
{"SMILES": "Cc1csc(C(C)(O)c2nnc(Nc3ccc(Br)c(C(F)(F)F)n3)s2)n1", "method": "resazurin / fluorescence", "value": "31.6 µM"}
{"SMILES": "O=C(N/N=C/c1ccc(N2CCOCC2)o1)c1ccncc1", "method": "MTT", "value": ">80 µg/mL"}
{"SMILES": "CO[C@H]1C=CC2=CC(=O)N3CCc4cc5c(cc4[C@]23C1)OCO5", "method": "MTT", "value": "3.89 µg/mL"}
{"SMILES": "O=C(N/N=C/C12CC3CC(C1)CC(C1CCCC1)(C3)C2)c1ccncc1", "method": "luminescence", "value": "37.5 µg/mL"}
{"SMILES": "Cc1cccc(NC(=O)c2cccc(CN3C(=O)CNC3=O)c2)c1", "method": "XTT", "value": "41.3 µM"}
{"SMILES": "CC1CCN(c2ccc([N+](=O)[O-])s2)CC1", "method": "resazurin", "value": "61 µg/mL"}
{"SMILES": "Cc1cn([C@@H]2CC[C@H](CO)O2)c(=O)[nH]c1=O", "value": ">200 µM"}
{"SMILES": "O=c1cc(N2CCN(Cc3ccccc3)CC2)sc2c([N+](=O)[O-])cc(C(F)(F)F)cc12", "method": "MTT", "value": ">64 µg/mL"}
{"SMILES": "C[C@H]1C(OC(=O)c2ccccc2)O[C@@H]2OC3(C)CCC4[C@H](C)CCC1[C@]42OO3", "method": "ATP / luminescence", "value": ">26 µM"}
{"SMILES": "O=C(N/N=C/c1ccc(C23CC4CC(CC(C4)C2)C3)cc1)c1ccncc1", "method": "luminescence", "value": "18.7 µg/mL"}
{"SMILES": "C[C@@H]1CCC2[C@@H](C)[C@@H](OCCNCCCn3ccnc3)O[C@@H]3OC4(C)CCC1[C@@]23OO4", "method": "ATP / luminescence", "value": ">22.7 µM"}
{"SMILES": "CCN(CC)CCOc1ccccc1C(=O)CCc1ccccc1", "method": "cell count / luminescence", "value": ">34 µM"}
{"SMILES": "Cc1ccc(N=Cc2ccc([N+](=O)[O-])s2)cc1[N+](=O)[O-]", "method": "MTT", "value": ">80 µg/mL"}
{"SMILES": "OCc1cc2c(Br)cc3c(c2c(-c2ccc4c(c2)OCO4)c1CO)OCO3", "value": "12 µM"}
{"SMILES": "CC1(C)CC[C@]2(C(=O)O)CC[C@]3(C)C(=CC[C@@H]4[C@@]5(C)C[C@@H](O)[C@H](O)[C@@](C)(CO)[C@@H]5CC[C@]43C)[C@@H]2C1", "method": "ATP", "value": ">26 µM"}
{"SMILES": "O=C(N/N=C/c1ccc(C2C3CC4CC(C3)CC2C4)cc1)c1ccncc1", "method": "luminescence", "value": "9.7 µg/mL"}
{"SMILES": "Nc1nc(N)c2ncn([C@H]3CO[C@@H](CO)O3)c2n1", "value": "≥500 µM"}
{"SMILES": "CCc1ccc(OCCCCN(C)Cc2ccccc2)cc1", "method": "cell count / luminescence", "value": ">22.4 µM"}
{"SMILES": "C[C@H]1C(OC(=O)Cc2ccccc2)O[C@@H]2OC3(C)CCC4[C@H](C)CCC1[C@]42OO3", "method": "ATP / luminescence", "value": ">26 µM"}
{"SMILES": "O=C(Nc1ccc(C(F)(F)F)cc1)c1cc(Cl)ccc1OC(=O)N(c1ccccc1)c1ccccc1", "method": "MTT", "value": ">100 µM"}

The last 4 rows once more:

SMILES,method,setting,value
Nc1nc(N)c2ncn([C@H]3CO[C@@H](CO)O3)c2n1,,,≥500 µM
CCc1ccc(OCCCCN(C)Cc2ccccc2)cc1,cell count / luminescence,,>22.4 µM
C[C@H]1C(OC(=O)Cc2ccccc2)O[C@@H]2OC3(C)CCC4[C@H](C)CCC1[C@]42OO3,ATP / luminescence,,>26 µM
O=C(Nc1ccc(C(F)(F)F)cc1)c1cc(Cl)ccc1OC(=O)N(c1ccccc1)c1ccccc1,MTT,,>100 µM

Blank or dashed fields: not listed here. Neighbouring rows are from separate reports.